The values below come from PMC3935945, “Insight into Highly Conserved H1 Subtype-Specific Epitopes in Influenza Virus Hemagglutinin” (PLoS ONE, 2014).

The experiment concerns the target T1, HA from A/Brevig Mission/1/1918(H1N1) (influenza A virus A/Brevig …, UniProt Q9WFX3).
T1 construct: also called 1918 pdm HA
As to the kind of experiment: ELISA. A general note: In an ELISA, binding on a coated surface is turned into a signal by an enzyme label.

B1: H1-specific monoclonal antibody GC0757 (antibody, V domains shown)
VH: VKLQESGAVVQPGGSLRLSCAASGFTGSDYDMSWIRQAPGKGLEWVSGILGGSERSYYRDSVKGRSTISRDNSRKTLYLEMNSLRAEDTAVYYCARHSWGAYVQYGMDGWGQGTTVTVSS
VL: DIQMTQSPASLAVSPGQRATITCRASESVSNYGINFINWFQQKPGQPPKLLIYTASNKGTGVPARFSGSGSGTDFTLTINPVEAEDTANYFCQQTKEVPYGTFGGTKLEIK
notes: copies: 2 + 2
Turning to B1, the binding result was “binds”.
